Results as given in the supplement of paper PMC12637763.
Residue numbers refer to the chain shown, from its start. This is one part of the list. Env chains of viruses from a treatment-interruption trial, translated from the printed DNA. IC50 / IC80 of two broadly neutralizing antibodies; lower = more sensitive virus; >50 µg/ml means not reached and <0.001 µg/ml is below the lowest dose. No active / inactive call.

B1: HIV-1 Env, rebound clone, antibody arm (protein)
chain: MRAKGIRKNCQDLLKGGILLLGILMICSAAGNLWVTVYYGVPVWKDATTTLFCASDAKGYSKEAHNVWATHACVPTDPDPREIVMGNVTENFNMWKNDMVDQMHEDIISLWDQSLKPCVKLTPLCVTLNCTNLNITNLNNTNSNTSDTNNNTSSENGSEEMKNCSFNVTTIKGKYQKEYAVLYKLDLVPIDNNDNTSYMLINCNTSVITQACPKISFEPIPIHYCAPAGFAILKCNNKTFNGTGPCTNVSSVQCTHGIRPVVSTQLLLNGSLAEEEVVIRSENFTDNAKTIIVQLKDPIQINCTRPNNNTRKSIHIGPGRAFYATGQIIGNIRQAYCNISKEQWNEALNQTVRKLREQFGNKTMIFNQSSGGDPEIVMHTFNCGGEFFYCNTTQLFNSTWYDTTNSTDSNNNTIKLPCRIKQVINRWQEVGKAMYAPPISGPIRCSSNITGLLLVRDGGNNNSSNSSETFRPGGGNMKDNWRSELYKYKVVKIEPLGVAPTKAKRRVVQRERRAVTLGAMFLGFLGTAGSTMGAASLTLTVQARQLLSGIVQQQSNLLRAIEVHQHMLQLTVWGIKQLQARVLAVERYLKDQQLLGIWGCSGKLICTTTVPWNASWSKKNLSEIWDNMTWIEWEREIQNYTEEIYSLIEKSQNQQAKNEQELLELDKWANLWNWFDITNWLWYIKIFIMIVGGLIGLRIVFTVLSIVNRVRQGYSPLSFQTRLPTQRGPDRPGGTEEEGGERDRDTSRPLVDGFLAIIWVDLRSLFLFSYHRLRDLLLIVTRIVETLGRRGWELLKYWWNLLQYWSQELKNSAISLLNATAIAVAEGTDRVIELIQRAGKAIIHIPRRIRQGLESALL
B2: HIV-1 Env, rebound clone, antibody arm (protein)
chain: B1 chain with W344C, K840R
B3: HIV-1 Env, rebound clone, antibody arm (protein)
chain: B1 chain with I631V, K840R
B4: HIV-1 Env, rebound clone, antibody arm (protein)
chain: B1 chain with S114N, K667R, K840R
B5: HIV-1 Env, rebound clone, antibody arm (protein)
chain: B1 chain with E632K, K840R
B6: HIV-1 Env, rebound clone, antibody arm (protein)
chain: MRAKGIRKNCQDLLKGGILLLGILMICSAAGNLWVTVYYGVPVWKDATTTLFCASDAKGYSKEAHNVWATHACVPTDPDPREIVMGNVTENFNMWKNDMVDQMHEDIISLWDQSLKPCVKLTPLCVTLNCTNLNITNLNNTNSNTSDTNNNTSSENGSEEMKNCSFNVTTIKGKYQKEYAVLYKLDLVPIDNNDNTSYMLINCNTSVITQACPKISFEPIPIHYCAPAGFAILKCNNKTFNGTGPCTNVSSVQCTHGIRPVVSTQLLLNGSLAEEEVVIRSENFTDNAKTIIVQLKDPIQINCTRPNNNTRKSIHIGPGRAFYATGQIIGNIRQAYCNISKEQWNEALNQTVRKLREQFGNNKTMIFNQSSGGDPEIVMHTFNCGGEFFYCNTTQLFNSTWYDTTNSTDSNNNTIKLPCRIKQVINRWQEVGKAMYAPPISGPIRCSSNITGLLLVRDGGNNNSSNSSETFRPGGGNMKDNWRSELYKYKVVKIEPLGVAPTKAKRRVVQRERRAVTLGAMFLGFLGTAGSTMGAASLTLTVQARQLLSGIVQQQSNLLRAIEVHQHMLQLTVWGIKQLQARVLAVERYLKDQQLLGIWGCSGKLICTTTVPWNASWSKKNLSEIWDNMTWIEWEREIQNYTEEIYSLIEKSQNQQAKNEQELLELDKWANLWNWFDITNWLWYIKIFIMIVGGLIGLRIVFTVLSIVNRVRQGYSPLSFQTRLPTQRGPDRPGGTEEEGGERDRDTSRPLVDGFLAIIWVDLRSLFLFSYHRLRDLLLIVTRIVETLGRRGWELLKYWWNLLQYWSQELKNSAISLLNATAIAVAEGTDRVIELIQRAGRAIIHIPRRIRQGLESALL

Columns and labels:
antibody 10-1074 [1] = test: neutralization IC50; higher = virus less sensitive to the antibody
Experimental: (§1)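 Pseudovirus bearing the Env chain mixed with antibody, from 50 µg/ml in fivefold dilutions, on TZM-bl reporter cells, in duplicate.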

antibody 3BNC117 [2] = test: as above
Experimental: as §1

antibody 10-1074 [3] = test: neutralization IC80; higher = virus less sensitive to the antibody
Experimental: as §1

antibody 3BNC117 [4] = test: as above
Experimental: as §1

| Binder | neutralization IC50 (antibody 10-1074 [1]) [µg/mL] | neutralization IC50 (antibody 3BNC117 [2]) [µg/mL] | neutralization IC80 (antibody 10-1074 [3]) [µg/mL] | neutralization IC80 (antibody 3BNC117 [4]) [µg/mL] |
| --- | --- | --- | --- | --- |
| B1 | > 50 | 0.509 | > 50 | 1.65 |
| B2 | > 50 | 0.131 | > 50 | 0.452 |
| B3 | > 50 | 0.322 | > 50 | 1.2 |
| B4 | > 50 | 0.331 | > 50 | 1.16 |
| B5 | > 50 | 0.312 | > 50 | 1.08 |
| B6 | > 50 | 0.362 | > 50 | 1.26 |
